Values from PubChem BioAssay AID1259414 (Drosophila RNAi Screening Center, 2018).
The deposit covers about 24,000 reagents; this is a random part of those that have a named target and a result. Over the whole deposit, about 1,210 (5%) are marked active. 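Inactive calls also include excluded dsRNAs with several or no targets, genes unexpressed in JW18, and well A1, regardless of score.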 Names joined by + are all predicted targets of the reagent. Reagent sequences are not shown.

Aim: 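Genome-wide screen for host control of endosymbiont load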 (primary screen)
Cells: Drosophila JW18 cells infected with Wolbachia
Reagent: long dsRNA against Drosophila genes, 0.25 µg dsRNA per well of a 384-well plate
Time to read-out: 5 days
Challenge: cells persistently infected with Wolbachia before knock-down; no added drug
Measurement: 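Automated imaging of bacterial rRNA staining divided by host cell count, reported as plate-normalised robust z-score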
Reading the numbers: Wolbachia per cell robust z: higher = more Wolbachia per host cell than the plate typical
Rule for the call: 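Active if absolute robust z reaches 1.5 in two or more of three replicates, leaving out multi- or no-target dsRNAs, genes unexpressed in JW18 and A1 wells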

gene,amplicon,"Wolbachia per cell robust z, rep 1","Wolbachia per cell robust z, rep 2","Wolbachia per cell robust z, rep 3",activity call
CG33465,DRSC05587,0.231,0.0739,-0.216,inactive
CG10194,DRSC02025,-0.836,0.438,0.987,inactive
CG12643,DRSC17849,0.238,-0.397,0.577,inactive
CG12643,DRSC24898,-0.482,-0.463,-0.203,inactive
fab1 + CG33981,DRSC28045,-0.0304,-0.28,0.000907,inactive
CG42465,DRSC40650,1.02,-0.51,0.033,inactive
Bgb,DRSC08148,0.176,0.976,-0.907,inactive
Bgb,DRSC25855,0.635,0.622,-0.0253,inactive
Cht5,DRSC16470,-1.28,-0.809,0.764,inactive
Cht5,DRSC26080,-0.27,0.279,0.148,inactive
FASN3,DRSC38779,-0.0224,0.94,1.01,inactive
AMPdeam,DRSC19366,0.337,0.166,-1.53,inactive
AMPdeam,DRSC19368,0.694,1.02,0.945,inactive
AMPdeam,DRSC19727,0.821,-0.22,-4.02,inactive
fs(2)ltoPP43,DRSC02067,-0.619,0.782,-0.0166,inactive
fs(2)ltoPP43,DRSC24493,1.04,-0.098,0.615,inactive
CG13587,DRSC04223,0.718,-0.179,0.245,inactive
CG13587,DRSC29632,-0.483,0.417,0.207,inactive
mt:lrRNA,DRSC40582,-2.14,0.34,0.704,inactive
CG5498,DRSC11608,-2.8,-0.912,-0.807,inactive
Bsg,DRSC01010,-0.438,-1.33,-0.471,inactive
Bsg,DRSC01011,-0.84,-0.176,0.14,inactive
Bsg,DRSC40816,0.45,0.844,0.236,inactive
Ugt37D1,DRSC02645,-1.18,-1.49,-0.71,inactive
Ugt37D1,DRSC23980,-1.61,-2.85,0.157,active
CG13300,DRSC09974,0.577,0.522,1.22,inactive
CG13300,DRSC25081,-1.09,1.17,-0.287,inactive
MBD-R2,DRSC14180,0.532,0.323,0.755,inactive
Ing3,DRSC20002,-3.99,-8.78,0.31,inactive
Ing3,DRSC27959,-0.508,1.46,0.512,inactive
CG30467,DRSC07097,-1.11,0.66,-1.95,inactive
CG15765,DRSC23026,-0.296,0.313,-3.42,inactive
CG15765,DRSC29271,-0.107,0.133,0.408,inactive
CG30156,DRSC04959,0.252,-1.43,-0.462,inactive
CG5966,DRSC18394,-0.533,-12,-7.08,inactive
CG8910,DRSC07414,0.172,1.23,-1.23,inactive
CG8910,DRSC28591,-1.22,-0.917,0.0295,inactive
CG15543,DRSC15081,1.15,0.915,-4.06,inactive
CG15543,DRSC41449,0,-1.05,0.233,inactive
CG13409,DRSC14585,1.2,0.41,0.943,inactive
CG32668,DRSC18879,-0.824,-1.18,-1.02,inactive
Pgant2,DRSC00587,-0.715,-0.103,-0.699,inactive
Cipc,DRSC14898,0.269,-0.117,0.0396,inactive
Cipc,DRSC14900,-0.0282,-0.0434,1.32,inactive
CG17376,DRSC21717,-1.75,-1.19,-1.46,inactive
CG30094,DRSC22268,0.0709,0.267,0.764,inactive
CG30094,DRSC27064,-0.142,0.439,0.13,inactive
CG11099 + CG13869,DRSC06428,0.582,0.0247,0.477,inactive
CG9098,DRSC03136,0.476,0.208,0.994,inactive
CG9098,DRSC22501,-3.84,1.52,0.645,inactive
CG9098,DRSC28828,0.859,1.38,0.512,inactive
CG13705,DRSC08314,-0.982,-0.724,-0.908,inactive
CG13705,DRSC22691,-2.74,0.681,0.853,inactive
CG13705,DRSC25173,0.0844,-0.674,0.471,inactive
mRpS31,DRSC10556,-0.0224,-0.48,-0.0868,inactive
pic,DRSC16639,1.34,0.236,-0.0607,inactive
Spg7,DRSC18469,-4.13,0.428,0.588,inactive
CG10916,DRSC06012,-4.5,-0.836,-6.63,active
Hsl,DRSC06028,1.21,-0.148,-1.9,inactive
CG8833,DRSC11050,-4.98,1.34,0.271,inactive
Or94a,DRSC16772,-2.85,0.791,-2.88,inactive
conu,DRSC07810,-1.11,-0.717,0.413,inactive
insb,DRSC06995,-3.4,-0.967,-1.02,inactive
insb,DRSC24404,0.291,-1.28,-2.62,inactive
RnrL,DRSC03413,2.23,2.03,1.77,active
CG32407,DRSC09789,-0.32,0.128,0.736,inactive
Sry-alpha,DRSC16867,0.0234,-0.14,-0.951,inactive
Sry-alpha,DRSC29189,-1.89,-1.81,-0.358,inactive
